{"source": "paper PMC11748689", "about": "“Pharmacological and structural understanding of the Trypanosoma cruzi proteasome provides key insights for developing site-specific inhibitors” (The Journal of Biological Chemistry, 2024)", "key": {"[1]": {"target": "recombinant WT T. cruzi proteasome (trypsin-like activity, β2) (Trypanosoma cruzi, UniProt V5BCU3)", "settings": "mean ± SD, N = 3"}, "[2]": {"target": "recombinant WT T. cruzi proteasome (caspase-like activity, β1) (Trypanosoma cruzi, UniProt V5BHX1)", "assay": "Caspase-like activity assay (Proteasome-Glo), recombinant wild-type T. cruzi proteasome", "format": "biochemical", "settings": "mean ± SD, N = 3"}, "[3]": {"target": "native T. cruzi proteasome (caspase-like activity, β1) (Trypanosoma cruzi, UniProt V5BHX1)", "assay": "Caspase-like activity assay (Proteasome-Glo), native T. cruzi proteasome", "format": "biochemical", "settings": "mean ± SD, N = 3"}, "[4]": {"target": "native T. cruzi proteasome (trypsin-like activity, β2) (Trypanosoma cruzi, UniProt V5BCU3)", "assay": "Trypsin-like activity assay (Proteasome-Glo), native T. cruzi proteasome", "format": "biochemical", "settings": "mean ± SD, N = 3"}, "[5]": {"target": "recombinant β4^R mutant T. cruzi proteasome (trypsin-like activity) (Trypanosoma cruzi, UniProt V5BCU3)", "settings": "mean ± SD, N = 3"}, "[6]": {"target": "recombinant β4^R mutant T. cruzi proteasome (caspase-like activity) (Trypanosoma cruzi, UniProt V5BHX1)", "assay": "Caspase-like activity assay (Proteasome-Glo), recombinant β4^R mutant T. cruzi proteasome", "format": "biochemical", "settings": "mean ± SD, N = 3"}, "[7]": {"target": "recombinant Δβ1Δβ2 mutant T. cruzi proteasome (chymotrypsin-like activity) (Trypanosoma cruzi, UniProt V5BU39+V5C017)", "settings": "mean ± SD, N = 3"}, "[8]": {"target": "recombinant WT T. cruzi proteasome (chymotrypsin-like activity, β5) (Trypanosoma cruzi, UniProt V5BU39+V5C017)"}, "[9]": {"target": "recombinant β4^R mutant T. cruzi proteasome (chymotrypsin-like activity) (Trypanosoma cruzi, UniProt V5BU39+V5C017, F24L/I29M)", "settings": "mean ± SD, N = 3; biphasic curves (a): pIC50 of most potent curve"}, "[10]": {"target": "native T. cruzi proteasome (chymotrypsin-like activity, β5) (Trypanosoma cruzi, UniProt V5BU39+V5C017)", "assay": "Chymotrypsin-like activity assay (Proteasome-Glo), native T. cruzi proteasome", "format": "biochemical", "settings": "mean ± SD, N = 3; biphasic curves (a): pIC50 of most potent curve; 60 min preincubation"}}}
{"molecule": "C[C@@H]1COCCN1c1cnc2nc(-c3cc(NC(=O)N4CC[C@@H](F)C4)ccc3F)ccn12", "values": [{"measurement": "pIC50, Trypsin Assay, Wild-type", "setting": "[1]", "result": "<4.52"}, {"measurement": "pIC50, Caspase Assay, Wild-type", "setting": "[2]", "result": "<4.52"}, {"measurement": "pIC50, Caspase Assay, Native", "setting": "[3]", "result": "<4.52"}, {"measurement": "pIC50, Trypsin Assay, Native", "setting": "[4]", "result": "<4.52"}, {"measurement": "pIC50, Trypsin Assay, β4^R mutant", "setting": "[5]", "result": "<4.52"}, {"measurement": "pIC50, Caspase Assay, β4^R mutant", "setting": "[6]", "result": "<4.52"}, {"measurement": "pIC50, Chymotrypsin Assay, Δβ1Δβ2 mutant", "setting": "[7]", "result": "7.82 ± 0.21"}, {"measurement": "pIC50, Chymotrypsin Assay, Wild-type", "setting": "[8]", "result": "7.75 ± 0.22"}, {"measurement": "pIC50, Chymotrypsin Assay, β4^R mutant", "setting": "[9]", "result": "5.08 ± 0.27"}, {"measurement": "pIC50, Chymotrypsin Assay, Native", "setting": "[10]", "result": "8.18 ± 0.34"}]}
